Measurements taken from patent publication US7592359B2, “Substituted azabicyclo hexane derivatives as muscarinic receptor antagonists” (Ranbaxy Laboratories Limited, priority 2003, dated 2009).

Chains of the proteins cited; added tags and fusions are not shown.
UniProt P10980, whole entry, looked up: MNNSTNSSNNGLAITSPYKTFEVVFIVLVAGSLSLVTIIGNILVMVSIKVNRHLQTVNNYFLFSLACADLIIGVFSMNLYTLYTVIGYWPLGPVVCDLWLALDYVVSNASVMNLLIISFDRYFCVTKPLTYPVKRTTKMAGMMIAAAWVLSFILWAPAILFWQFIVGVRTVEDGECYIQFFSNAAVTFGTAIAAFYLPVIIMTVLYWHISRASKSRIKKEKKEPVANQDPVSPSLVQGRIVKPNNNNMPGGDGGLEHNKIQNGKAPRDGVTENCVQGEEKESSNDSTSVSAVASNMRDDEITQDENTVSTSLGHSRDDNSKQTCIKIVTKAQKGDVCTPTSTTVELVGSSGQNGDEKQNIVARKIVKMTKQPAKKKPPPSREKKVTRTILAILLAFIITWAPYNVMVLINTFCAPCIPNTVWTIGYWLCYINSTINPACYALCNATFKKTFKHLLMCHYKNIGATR
UniProt P08483, whole entry, looked up: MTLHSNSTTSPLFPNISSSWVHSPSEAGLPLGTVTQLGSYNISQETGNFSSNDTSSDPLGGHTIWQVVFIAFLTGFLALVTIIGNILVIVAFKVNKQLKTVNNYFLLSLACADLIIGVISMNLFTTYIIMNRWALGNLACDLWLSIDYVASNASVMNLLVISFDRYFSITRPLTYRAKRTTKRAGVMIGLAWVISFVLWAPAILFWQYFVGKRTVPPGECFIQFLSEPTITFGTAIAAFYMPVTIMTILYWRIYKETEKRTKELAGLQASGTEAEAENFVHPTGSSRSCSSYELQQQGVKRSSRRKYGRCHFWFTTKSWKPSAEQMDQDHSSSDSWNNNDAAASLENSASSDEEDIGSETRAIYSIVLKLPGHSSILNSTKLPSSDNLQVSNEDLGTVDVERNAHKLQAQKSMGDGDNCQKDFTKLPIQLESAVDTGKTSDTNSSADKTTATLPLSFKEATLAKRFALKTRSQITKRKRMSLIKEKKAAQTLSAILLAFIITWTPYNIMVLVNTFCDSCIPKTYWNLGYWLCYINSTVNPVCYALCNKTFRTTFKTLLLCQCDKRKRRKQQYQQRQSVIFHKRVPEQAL

Legend:
[1] = molecular target: M2 muscarinic receptor (Rattus norvegicus, UniProt P10980); assay: Radioligand binding assay, [3H]-N-methylscopolamine, rat heart membranes; conditions: [3H]-NMS binding
[2] = molecular target: M3 muscarinic receptor (Rattus norvegicus, UniProt P08483); assay: Radioligand binding assay, [3H]-N-methylscopolamine, rat submandibular gland membranes; conditions: [3H]-NMS binding

For `O=C(NC12CC1CN(Cc1ccccc1)C2)C(O)(c1ccccc1)c1ccccc1` (centres unmarked), the “Receptor Binding Assay pKi M2” value [1] was 6.75 and the “Receptor Binding Assay pKi M3” value [2] was 6.96.
